Compound potency records, mixed from different reports. Data source: NIAID ChemDB in PubChem.

Shared fields: target-level tests

ICn: concentration for n% inhibition. Rows are shuffled and stem from different studies. Inhibition is in % at the dose shown (toxicity tests: loss of growth or viability). Two numbers with a dash give a range or band. Blank or dashed fields: not listed here.

smiles | protein | agent | strain or isolate | method | tested at | measure | result
CC[C@H](NC(=O)[C@H](CC1CCCCC1)NC(=O)[C@@H](NC(=O)[C@H](CC(C)C)NC(=O)[C@@H](CCC(=O)O)NC(=O)[C@H](CC(=O)O)NC(C)=O)[C@H](C)CC)C(=O)/C=C/CCCC(C)C | NS3 protease | Hepatitis C virus |  |  |  | Ki | 0.39 µM
CSc1ncc(C(=O)NN2CCOCC2)c(Nc2ccc3[nH]ncc3c2)n1 | Reverse transcription | Hepatitis B virus |  |  |  | IC50 | <0.1 µg/mL
O=C(O)c1cc2nc(-c3cccc(Cl)c3)cc(-c3ccc(OCc4ccccc4)cc3)n2n1 | RNA-dependent RNA polymerase | Hepatitis C virus |  |  |  | IC50 | 1–10 µM
COc1ccc2c(O[C@@H]3C[C@@H](C(=O)NC4(C(=O)NS(=O)(=O)C5(C(=O)c6ccccc6)CC5)CC4)N(C(=O)[C@@H](NC(=O)OC(C)(C)C)C(C)(C)C)C3)cc(-c3ccccc3)nc2c1 | NS3/NS4A protease | Hepatitis C virus | BMS |  |  | IC50 | 0.5–5 µM
CCOC(=O)c1cc2nc(-c3ccc(F)cc3)cc(-c3ccc(Cl)cc3)n2n1 | RNA-dependent RNA polymerase | Hepatitis C virus |  |  |  | IC50 | >10 µM
CC(C)CNc1cccnc1N1CCN(C(=O)c2ccc(C(=O)NC(C)C)cn2)CC1 | Reverse transcriptase | Hepatitis B virus |  |  |  | IC50 | 0.005 µg/mL
C=CCOCc1ccccc1CCC1(C2CCCC2)CC(=O)CC(=O)O1 | Nonstructural protein 5B | Hepatitis C virus |  |  |  | IC50 | 10–50 µM
CSc1ncc(C(=O)NCCN(C)C)c(Nc2ccc3[nH]ncc3c2)n1 | Reverse transcription | Hepatitis B virus |  |  |  | IC50 | ~0.1 µg/mL
Cc1onc(-c2ccc(Cl)cc2)c1-c1ccc2cc(-c3nc4cc(C(=O)O)ccc4n3C3CCCCC3)ccc2n1 | NS5B polymerase | Hepatitis C virus |  |  | 33 µM | inhibition | 100%
C=C(Br)CN(C(=O)c1ccc(Cl)cc1Cl)C(Cc1ccccc1)C(=O)O | RNA-dependent RNA polymerase | Hepatitis C virus |  |  |  | IC50 | 5–20 µM
COc1cc(OC)c(CCC2(C3CCCC3)CC(O)=C(Sc3nnnn3CCN(C)C)C(=O)O2)cc1Cl | Nonstructural protein 5B | Hepatitis C virus |  |  |  | IC50 | <1 µM
Cc1cc(-c2ccccc2-c2ccc(Cl)cc2)nc2ccc(-c3nc4cc(C(=O)O)ccc4n3C3CCCCC3)cc12 | NS5B polymerase | Hepatitis C virus |  |  | 100 µM | inhibition | 99.54%
O=C(O)C(Cc1ccccc1)N(Cc1cc(-c2nccs2)cs1)C(=O)c1ccc(Cl)cc1Cl | RNA-dependent RNA polymerase | Hepatitis C virus |  |  |  | IC50 | <5 µM
COC(CNC(=O)c1ccc(C(=O)N2CCN(c3ncccc3NC(C)C)CC2)nc1)OC | Reverse transcriptase | Hepatitis B virus |  |  |  | IC50 | 0.005 µg/mL
CCCC(NC(=O)[C@H](CC1CCCCC1)NC(=O)[C@@H](NC(=O)[C@H](CC(C)C)NC(=O)[C@@H](CCC(=O)O)NC(=O)[C@H](CC(=O)O)NOC(=O)CCC(=O)O)[C@H](C)CC)C(=O)c1nn[nH]n1 | NS3 protease | Hepatitis C virus |  |  |  | Ki | 0.3 µM
COCCNC(=O)c1ccc(C(=O)N2CCN(c3ncccc3NC(C)C)CC2)nc1 | Reverse transcriptase | Hepatitis B virus |  |  |  | IC50 | 0.001 µg/mL
CCC[C@]1(CC(=O)O)OCCc2c1[nH]c1c(C)c(OC[C@H](C)n3cccn3)cc(C#N)c21 | HCV polymerase | Hepatitis C virus | BB7 | nucleotide incorporation |  | IC50 | 0.005 µM
CCC[C@H](NC(=O)[C@H](CC1CCCCC1)NC(=O)[C@@H](NC(=O)[C@H](CC(C)C)NC(=O)[C@@H](CCC(=O)O)NC(=O)[C@H](CC(=O)O)NOC(=O)CCC(=O)O)[C@H](C)CC)C(=O)NS(=O)(=O)c1ccccc1 | NS3 protease | Hepatitis C virus |  |  |  | Ki | 0.014 µM
CSc1ncc(C(=O)N2CCN(C)CC2)c(Nc2ccc3cn[nH]c3c2)n1 | Reverse transcription | Hepatitis B virus |  |  |  | IC50 | <1 µg/mL
CC(C)Nc1cccnc1N1CCN(C(=O)c2ccc(C(=O)NCCCO)cn2)CC1 | Reverse transcriptase | Hepatitis B virus |  |  |  | IC50 | 0.012 µg/mL
CC[C@H](C)[C@H](NC(=O)[C@H](CC(C)C)NC(=O)CCC(=O)O)C(=O)N[C@@H](CC1CCCCC1)C(=O)NC1(C(=O)O)CC1 | Nonstructural protein 3 NTPase/helicase | Hepatitis C virus |  |  |  | IC50 | >83.5 µM
O=C(O)[C@H](Cc1ccccc1)N(Cc1cccc(-c2cc3ccccc3o2)c1)C(=O)c1ccc(Cl)cc1Br | RNA-dependent RNA polymerase | Hepatitis C virus |  |  |  | IC50 | <5 µM
O=C(O)c1ccc2c(c1)nc(-c1ccc3nc(-c4cc(Cl)ccc4-c4ccc(Cl)cc4)ccc3c1)n2C1CCCCC1 | NS5B polymerase | Hepatitis C virus |  |  | 100 µM | inhibition | 97.65%
Cc1nc(C)c(COc2ccc(-c3cnc4c(-c5nn[nH]n5)cnn4c3C3CCCCC3)cc2)s1 | RNA-dependent RNA polymerase | Hepatitis C virus |  |  |  | IC50 | 1–10 µM
O=C(O)CCCC(=O)N[C@H](C(=O)N[C@@H](CCC(=O)O)C(=O)N[C@@H](CCC(=O)O)C(=O)NC1(C(=O)O)CC1)C(c1ccccc1)c1ccccc1 | Nonstructural protein 3 NTPase/helicase | Hepatitis C virus |  |  | 167 µM | inhibition | 24%
CSc1ncc(C(=O)NCCCn2ccnc2)c(Nc2ccc3[nH]ncc3c2)n1 | Reverse transcription | Hepatitis B virus |  |  |  | IC50 | <0.1 µg/mL
Cc1nc(C)c(-c2ccc3cc(-c4nc5cc(C(=O)O)ccc5n4C4CCCCC4)ccc3n2)s1 | NS5B polymerase | Hepatitis C virus |  |  | 33 µM | inhibition | 96.59%
C=C[C@H]1C[C@@]1(NC(=O)[C@@H]1C[C@@H](Oc2cc(-c3ccccc3)nc3cc(OC)ccc23)CN1C(=O)[C@@H](NC(=O)OC(C)(C)C)C(C)(C)C)C(=O)NS(=O)(=O)C1(Cc2ccccc2F)CC1 | NS3/NS4A protease | Hepatitis C virus | BMS |  |  | IC50 | <0.05 µM
O=C(NC(CC1CCCCC1)C(=O)O)c1ccc2c(c1)nc(-c1ccc3nc(-c4ccccc4)cnc3c1)n2C1CCCCC1 | NS5B polymerase | Hepatitis C virus |  |  | 100 µM | inhibition | 97%
O=C(O)CCC(=O)N[C@H](C(=O)N[C@@H](CCC(=O)O)C(=O)N[C@@H](Cc1ccc2ccccc2c1)C(=O)N[C@@H](CS)C(=O)O)C(c1ccccc1)c1ccccc1 | Nonstructural protein 3 NTPase/helicase | Hepatitis C virus |  |  | 83.5 µM | inhibition | 74%
O=C(O)c1ccc2c(c1)nc(-c1ccc3nc(-c4ccc(O)cc4O)ccc3c1)n2C1CCCCC1 | NS5B polymerase | Hepatitis C virus |  |  | 100 µM | inhibition | 101%
CC[C@@H](C)[C@H](NC(=O)[C@H](CC(C)C)NC(=O)[C@@H](CCC(=O)O)NC(=O)[C@H](CC(=O)O)NOC(=O)CCC(=O)O)C(=O)N[C@@H](CC1CCCCC1)C(=O)NC1(c2nn[nH]n2)CC1 | NS3 protease | Hepatitis C virus |  |  |  | Ki | 0.19 µM
O=C1CC(=O)OC(CCc2cccc3ccccc23)(C2CCCC2)C1 | Nonstructural protein 5B | Hepatitis C virus |  |  |  | IC50 | >50 µM
Cc1cc(NC(=O)c2ccc(C(=O)N3CCN(c4ncccc4NC(C)C)CC3)nc2)no1 | Reverse transcriptase | Hepatitis B virus |  |  |  | IC50 | 0.11 µg/mL
O=C(O)c1cc2nc(-c3ccc(Cl)cc3)cc(-c3ccc(Cl)cc3)n2n1 | RNA-dependent RNA polymerase | Hepatitis C virus |  |  |  | IC50 | >10 µM
CSc1ncc(C(=O)NN2CCN(C)CC2)c(Nc2ccc3[nH]ncc3c2)n1 | Reverse transcription | Hepatitis B virus |  |  |  | IC50 | ~0.1 µg/mL
CC(C)C[C@H](NC(=O)CCC(=O)O)C(=O)N[C@@H](CCC(=O)O)C(=O)N[C@@H](CCC(=O)O)C(=O)N[C@@H](CS)C(=O)O | Nonstructural protein 3 NTPase/helicase | Hepatitis C virus |  |  | 1.67 µM | inhibition | 17%
COc1ccc(-c2ccc(CN(C(=O)c3ccc(Cl)cc3Cl)C(Cc3ccccc3)C(=O)O)s2)cc1 | RNA-dependent RNA polymerase | Hepatitis C virus |  |  |  | IC50 | <5 µM
CC[C@H](C)[C@H](NC(=O)[C@H](CC(C)C)NC(=O)CCCC(=O)O)C(=O)N[C@@H](CC1CCCCC1)C(=O)NC1(C(=O)O)CC1 | Nonstructural protein 3 NTPase/helicase | Hepatitis C virus |  |  | 167 µM | inhibition | 12%
C=C[C@H]1C[C@@]1(NC(=O)[C@@H]1C[C@@H](Oc2cc(-c3ccccc3)nc3cc(OC)ccc23)CN1C(=O)[C@@H](NC(=O)OC(C)(C)C)C(C)(C)C)C(=O)NS(=O)(=O)C1(Cc2cccnc2)CC1 | NS3/NS4A protease | Hepatitis C virus | BMS |  |  | IC50 | <0.05 µM
O=C(O)[C@H](Cc1ccccc1)N(Cc1cccc(Br)c1)C(=O)Cc1ccc(Cl)cc1Cl | RNA-dependent RNA polymerase | Hepatitis C virus |  |  |  | IC50 | 5–20 µM
CC(=O)N[C@H](C(=O)N[C@@H](CCC(=O)O)C(=O)N[C@@H](CCC(=O)O)C(=O)NC1(C(=O)O)CC1)C1CCCCC1 | Nonstructural protein 3 NTPase/helicase | Hepatitis C virus |  |  |  | IC50 | >83.5 µM
CSc1ncc(C(=O)NCCN2CCOCC2)c(Nc2ccc3[nH]ncc3c2)n1 | Reverse transcription | Hepatitis B virus |  |  |  | IC50 | <1 µg/mL
CC(C)Oc1cccc(CCC2(C3CCCC3)CC(=O)CC(=O)O2)c1 | Nonstructural protein 5B | Hepatitis C virus |  |  |  | IC50 | 1–10 µM
O=C(O)C(Cc1ccccc1)N(Cc1cc(-c2cc(F)cc(F)c2)cs1)C(=O)c1ccc(Cl)cc1Cl | RNA-dependent RNA polymerase | Hepatitis C virus |  |  |  | IC50 | <5 µM
CSc1ncc(C(=O)N(C)C)c(Nc2ccc3cn[nH]c3c2)n1 | Reverse transcription | Hepatitis B virus |  |  |  | IC50 | <1 µg/mL
COc1ccc(COc2ccc(-c3cnc4c(-c5nn[nH]n5)cnn4c3C3CCCCC3)cc2)cc1C | RNA-dependent RNA polymerase | Hepatitis C virus |  |  |  | IC50 | 1–10 µM
CSc1ncc(C(=O)N2CCN(C)CC2)c(Nc2ccc3[nH]ncc3c2)n1 | Reverse transcription | Hepatitis B virus |  |  |  | IC50 | <0.1 µg/mL
C=C[C@H]1C[C@@]1(NC(=O)[C@@H]1C[C@@H](Oc2cc(-c3ccccc3)nc3cc(OC)ccc23)CN1C(=O)[C@@H](NC(=O)OC(C)(C)C)C(C)(C)C)C(=O)NS(=O)(=O)C1(Cc2ccc(F)cc2)CC1 | NS3/NS4A protease | Hepatitis C virus | BMS |  |  | IC50 | <0.05 µM
CSc1ncc(C(=O)NCCN2CCOCC2)c(Nc2ccc3cn[nH]c3c2)n1 | Reverse transcription | Hepatitis B virus |  |  |  | IC50 | <1 µg/mL
CC(C)C[C@H](NC(=O)[C@H](CCC(N)=O)NC(=O)[C@@H](NC(=O)CCC(=O)O)C1CCCCC1)C(=O)N[C@@H](CS)C(=O)O | Nonstructural protein 3 NTPase/helicase | Hepatitis C virus |  |  | 1.67 µM | inhibition | 6%

7 of the rows above, restated:

smiles | protein | agent | strain or isolate | method | tested at | measure | result
Cc1cc(NC(=O)c2ccc(C(=O)N3CCN(c4ncccc4NC(C)C)CC3)nc2)no1 | Reverse transcriptase | Hepatitis B virus |  |  |  | IC50 | 0.11 µg/mL
CC[C@H](C)[C@H](NC(=O)[C@H](CC(C)C)NC(=O)CCC(=O)O)C(=O)N[C@@H](CC1CCCCC1)C(=O)NC1(C(=O)O)CC1 | Nonstructural protein 3 NTPase/helicase | Hepatitis C virus |  |  |  | IC50 | >83.5 µM
COc1ccc(-c2ccc(CN(C(=O)c3ccc(Cl)cc3Cl)C(Cc3ccccc3)C(=O)O)s2)cc1 | RNA-dependent RNA polymerase | Hepatitis C virus |  |  |  | IC50 | <5 µM
COc1ccc(COc2ccc(-c3cnc4c(-c5nn[nH]n5)cnn4c3C3CCCCC3)cc2)cc1C | RNA-dependent RNA polymerase | Hepatitis C virus |  |  |  | IC50 | 1–10 µM
CC(C)C[C@H](NC(=O)CCC(=O)O)C(=O)N[C@@H](CCC(=O)O)C(=O)N[C@@H](CCC(=O)O)C(=O)N[C@@H](CS)C(=O)O | Nonstructural protein 3 NTPase/helicase | Hepatitis C virus |  |  | 1.67 µM | inhibition | 17%
CSc1ncc(C(=O)NCCCn2ccnc2)c(Nc2ccc3[nH]ncc3c2)n1 | Reverse transcription | Hepatitis B virus |  |  |  | IC50 | <0.1 µg/mL
O=C(O)c1cc2nc(-c3ccc(Cl)cc3)cc(-c3ccc(Cl)cc3)n2n1 | RNA-dependent RNA polymerase | Hepatitis C virus |  |  |  | IC50 | >10 µM